Source: ChEMBL document CHEMBL1158985, “Two new trichothecenes from Fusarium sporotrichioides” (1991)

Test: Cytotoxicity against syrian golden hamster BHK21 cells after 24 hrs
Details: bhk-21, 24 h

SMILES	LC100 [ng/mL]
CC(=O)O[C@H]1C[C@@]2(CO)[C@@H](C=C1C)O[C@@H]1[C@H](O)[C@@H](OC(C)=O)[C@@]2(C)[C@@]12CO2	1000
CCCCC(=O)O[C@H]1C[C@@]2(COC(C)=O)[C@@H](C=C1C)O[C@@H]1[C@H](O)[C@@H](OC(C)=O)[C@@]2(C)[C@@]12CO2	14
CCCCCC(=O)O[C@H]1C[C@@]2(COC(C)=O)[C@@H](C=C1C)O[C@@H]1[C@H](O)[C@@H](OC(C)=O)[C@@]2(C)[C@@]12CO2	14
CC(=O)OC[C@]12C[C@H](OC(=O)CC(C)C)C(C)=C[C@H]1O[C@@H]1[C@H](O)[C@@H](OC(C)=O)[C@@]2(C)[C@]12CO2	5
CC(=O)OC[C@]12C[C@H](O)C(C)=C[C@H]1O[C@@H]1[C@H](O)[C@@H](OC(C)=O)[C@@]2(C)[C@]12CO2	31
CCC(=O)O[C@H]1C[C@@]2(COC(C)=O)[C@@H](C=C1C)O[C@@H]1[C@H](O)[C@@H](OC(C)=O)[C@@]2(C)[C@@]12CO2	5
CC(=O)OC[C@]12C[C@H](OC(C)=O)C(C)=C[C@H]1O[C@@H]1[C@H](O)[C@@H](OC(C)=O)[C@@]2(C)[C@@]12CO2	14
